Results of unrelated studies side by side (data: NIAID ChemDB).

Common to all: tests on isolated targets; organism: HIV-1; protein: Reverse transcriptase; measure: IC50

Lines come from different laboratories, so protocols vary.

CC1=C(C(=O)Nc2ccc(Cl)c(C(=O)OC(C)C)c2)SCCO1 ; changes: RT-E138K ; read by: nucleotide incorporation ; value: 3.6 µM
CSc1ncc(C(=O)NCCCn2ccnc2)c(Nc2ccc3[nH]ncc3c2)n1 ; read by: ELISA ; value: ~0.1 µg/mL
Cc1cc(S(N)(=O)=O)ccc1NC(=O)COc1ccccc1C(=O)c1cc(Cl)cc(C#N)c1 ; strain: WT ; read by: fluorescence ; value: 0.0076 µM
CNc1ccccc1C(=O)O[C@H]1[C@@H](O)[C@H](n2cnc3c(N)ncnc32)O[C@@H]1COP(=O)(O)OP(=O)(O)OP(=O)(O)OP(=O)(O)OC[C@@H]1CC[C@H](n2cnc3c(=O)[nH]c(N)nc32)O1 ; strain: WT ; read by: nucleotide incorporation / radiometric ; value: 16 µM
O=C(O)CCc1ccc(O)cc1 ; value: >100 µM
O=C(N/N=C/c1cc(O)c(O)c(O)c1)c1ccccc1O ; read by: RNase H / fluorescence ; value: 13.99 µM
Cc1cc(C(=O)O)ccc1N=Nc1c(S(=O)(=O)O)cc2cc(NC(=O)Nc3ccc4c(O)c(N=Nc5ccc(C(=O)O)cc5C)c(S(=O)(=O)O)cc4c3)ccc2c1O ; value: 0.025–0.1 µM
Cn1c(Oc2ccccc2-c2ccccc2)cc(=O)n(O)c1=O ; read by: nucleotide incorporation / radiometric ; value: >25 µM
Nc1ncnc2c1ncn2[C@H]1CO[C@@H](COP(=O)(O)OP(=O)(O)OP(=O)(O)O)C1 ; value: 35 µM
CCCN1C(=O)c2cc(Cl)nnc2N(CC)c2ccccc21 ; value: >330 µM
CC(C)Nc1cncnc1N1CCN(C(=O)c2cc3cc(F)ccc3[nH]2)CC1 ; read by: nucleotide incorporation ; value: <100 µM
CCN1c2ncc(CCOc3ccc(-c4cc(C(=O)O)c(C)o4)cc3)cc2C(=O)N(C)c2cccnc21 ; strain: IIIB ; changes: RT-K103N Y181C ; read by: nucleotide incorporation / radiometric ; value: >0.1 µM
CN1C(=O)[C@]2(C[C@@H]2c2ccc(Cl)cc2)c2ccccc21 ; read by: RT activity / nucleotide incorporation ; value: ≥97.28 µg/mL
Nc1ccn([C@@H]2O[C@H](COP(=O)(O)O[C@@H]3[C@H](O)[C@@H](COP(=O)(O)O[C@@H]4[C@H](O)[C@@H](COP(=O)(O)O)O[C@H]4n4ccc(N)nc4=O)O[C@H]3n3ccc(N)nc3=O)[C@@H](O)[C@H]2O)c(=O)n1 ; read by: nucleotide incorporation / radiometric ; value: 290 µM
O=C(OC1[C@H](OC(=O)c2cc(O)c(O)c(O)c2)CC(OC(=O)c2cc(O)c(O)c(O)c2)(C(=O)O)C[C@H]1OC(=O)c1cc(O)c(O)c(O)c1)c1cc(O)c(O)c(O)c1 ; strain: RF ; value: 0.8 µM
CSc1ncc(C(=O)NCCN(C)C)c(Nc2ccc3cn[nH]c3c2)n1 ; read by: ELISA ; value: ~0.1 µg/mL
CC(C)Nc1cccnc1N(C)N(C)C(=O)c1cc2ccccc2[nH]1 ; read by: nucleotide incorporation ; value: >100 µM
Cc1ccc2c(c1)N(C)C(=O)c1ccnnc1N2C1CC1 ; value: <330 µM
CC(C)Nc1cccnc1N1CCN(C(=O)c2cc3cc(F)ccc3[nH]2)CC1 ; read by: nucleotide incorporation ; value: <100 µM
CCNC(=O)c1cnc(SC)nc1Nc1ccc2[nH]ncc2c1 ; read by: ELISA ; value: ~0.1 µg/mL
CCCN1c2ccc(C)cc2N(C)C(=O)c2ccnnc21 ; value: >330 µM
CC(C)Nc1cccnc1N1CCN(C(=O)c2cc3cc(N)ccc3[nH]2)CC1 ; read by: nucleotide incorporation ; value: <100 µM
Nc1ccn([C@H]2CC[C@@H](COP(=O)(O)OP(=O)(O)OP(=O)(O)O)O2)c(=O)n1 ; strain: WT ; read by: nucleotide incorporation / radiometric ; value: 0.079 µM
C=CC(C)(C)n1cc(C2=C(O)C(=O)C(c3cn(C(C)(C)C=C)c4ccccc34)=C(O)C2=O)c2ccccc21 ; read by: binding ; value: 8.5 µM
CSc1ncc(C(=O)NCCN2CCOCC2)c(Nc2ccc3cn[nH]c3c2)n1 ; read by: ELISA ; value: ~0.1 µg/mL
Cc1cn([C@H]2CC[C@@H](COP(=O)(O)OP(=O)(O)OP(=O)(O)OP(=O)(O)OC[C@@H]3CC[C@H](n4cc(C)c(=O)[nH]c4=O)O3)O2)c(=O)[nH]c1=O ; strain: WT ; read by: nucleotide incorporation / radiometric ; value: 8.6 µM
CSCSc1nc(Cc2ccccc2)c(C)c(=O)[nH]1 ; read by: scintillation proximity ; value: 28.8 µM
CCCN1C(=O)c2cc(Cl)nnc2N(CCC)c2ccccc21 ; value: <330 µM
CCN(CC)CCNc1nc(NCCCNC(=O)c2cccc(C(=O)NCCCNc3nc4c(c(NCCN(CC)CC)n3)CC=CC4)c2)nc2c1CC=CC2 ; value: >50 µM
Cn1c(Nc2cccc(C3CCOC3)c2)cc(=O)n(O)c1=O ; read by: nucleotide incorporation / radiometric ; value: >25 µM
O=c1cc(-c2ccc(O)c(-c3c(O)cc4oc(-c5ccc(O)cc5)cc(=O)c4c3O)c2)oc2cc(O)cc(O)c12 ; read by: nucleotide incorporation / radiometric ; value: 144.4 µM
O=C(OCC1OC(OC2Cc3c(O)cc(O)cc3OC2c2cc(O)c(O)c(O)c2)C(O)C(O)C1O)c1cc(O)c(O)c(O)c1 ; value: 10.9 µM
CCN(C(C)=O)c1cccnc1N1CCN(C(=O)c2cc3ccccc3[nH]2)CC1 ; read by: nucleotide incorporation ; value: >100 µM
CCN1c2ncc(CCOc3ccc(-c4ccc(C(=O)O)c(C)c4)cc3C)cc2C(=O)N(C)c2cccnc21 ; strain: IIIB ; changes: RT-K103N Y181C ; read by: nucleotide incorporation / radiometric ; value: <0.05 µM
CCCCN1C(=O)c2ccnnc2N(C2CC2)c2ccccc21 ; value: >330 µM
Nc1nc2c(ncn2[C@H]2CC[C@@H](COP(=O)(O)OP(=O)(O)OP(=O)(O)O)O2)c(=O)[nH]1 ; strain: NL4-3 ; read by: nucleotide incorporation / radiometric ; value: 0.7 µM
C#Cc1ccc(Nc2nccc(Oc3c(C)cc(-c4cn(Cc5ccc(C(=O)OC)cc5)nn4)cc3C)n2)cc1 ; read by: RT activity / ELISA ; value: 0.24 µM
CCN1c2ncc(CCOc3cccc(-c4ccccc4)c3)cc2C(=O)N(C)c2cccnc21 ; strain: IIIB ; changes: RT-K103N Y181C ; read by: nucleotide incorporation / radiometric ; value: >0.1 µM
CCCCN1C(=O)c2cc(Cl)nnc2N(C2CC2)c2ccccc21 ; value: >330 µM
C#Cc1ccc(Nc2nccc(Oc3c(C)cc(-c4cn(CCc5cccs5)nn4)cc3C)n2)cc1 ; read by: RT activity / ELISA ; value: 0.44 µM
Nc1ncnc2c1ncn2[C@@H]1O[C@H](COP(=O)(O)O[C@@H]2C[C@@H](COP(=O)(O)O[C@@H]3[C@H](O)[C@@H](CO)O[C@H]3n3cnc4c(N)ncnc43)O[C@H]2n2cnc3c(N)ncnc32)[C@@H](O)[C@H]1O ; read by: nucleotide incorporation / radiometric ; value: 160 µM
CCN1c2ncc(CCOc3ccc(-c4ccncc4)cc3C)cc2C(=O)N(C)c2cccnc21 ; strain: IIIB ; read by: nucleotide incorporation / radiometric ; value: <0.05 µM
CC(=O)Nc1cccnc1N1CCN(C(=O)c2cc3ccccc3[nH]2)CC1 ; read by: nucleotide incorporation ; value: >100 µM
CSc1ncc(C(=O)NCCN2CCOCC2)c(Nc2ccc3[nH]ncc3c2)n1 ; read by: ELISA ; value: ~0.1 µg/mL
CC(C)(C)Nc1cccnc1N1CCN(C(=O)c2cc3ccccc3[nH]2)CC1 ; read by: nucleotide incorporation ; value: <100 µM
CCCN1c2ccccc2N(CC)C(=O)c2ccnnc21 ; value: <330 µM
Cc1c(Cc2ccccc2)nc(OC2CCCC2)[nH]c1=O ; read by: nucleotide incorporation ; value: 4 µM
CC(C)Nc1cccnc1N(C)CCCCN(C)C(=O)c1cc2ccccc2[nH]1 ; read by: nucleotide incorporation ; value: <100 µM
Cn1ncc2c1S(=O)(=O)NC(=O)N2Cc1ccc(Br)cc1 ; value: 50 µM
CCN1c2ccc(C)cc2N(C)C(=O)c2ccnnc21 ; value: <330 µM
CC(C)(C)CNc1cccnc1N1CCN(C(=O)c2cc3ccccc3[nH]2)CC1 ; read by: nucleotide incorporation ; value: >100 µM
O=C1Nc2ccc(F)cc2[C@@]12C[C@@H]2c1ccccc1 ; read by: RT activity / nucleotide incorporation ; value: 7.11 µg/mL
CCOCn1c(Cc2ccccc2)c(C(C)C)c(=O)[nH]c1=O ; read by: scintillation proximity ; value: 0.8 µM
CSc1ncc(C(=O)N(C)CCO)c(Nc2ccc3cn[nH]c3c2)n1 ; read by: ELISA ; value: ~0.1 µg/mL
Cc1cn([C@H]2C[C@H](N=[N+]=[N-])[C@@H](COP(=O)(O)OP(=O)(O)OP(=O)(O)OP(=O)(O)OC[C@H]3O[C@@H](n4cnc5c(N)ncnc54)[C@H](O)[C@@H]3O)O2)c(=O)[nH]c1=O ; strain: WT ; read by: nucleotide incorporation / radiometric ; value: 0.26 µM

For reference, 7 entries again:

compound	strain	changes	read by	value
CSc1ncc(C(=O)NCCN2CCOCC2)c(Nc2ccc3cn[nH]c3c2)n1			ELISA	~0.1 µg/mL
Cn1c(Nc2cccc(C3CCOC3)c2)cc(=O)n(O)c1=O			nucleotide incorporation / radiometric	>25 µM
CC(C)Nc1cncnc1N1CCN(C(=O)c2cc3cc(F)ccc3[nH]2)CC1			nucleotide incorporation	<100 µM
O=c1cc(-c2ccc(O)c(-c3c(O)cc4oc(-c5ccc(O)cc5)cc(=O)c4c3O)c2)oc2cc(O)cc(O)c12			nucleotide incorporation / radiometric	144.4 µM
C#Cc1ccc(Nc2nccc(Oc3c(C)cc(-c4cn(CCc5cccs5)nn4)cc3C)n2)cc1			RT activity / ELISA	0.44 µM
Nc1ccn([C@@H]2O[C@H](COP(=O)(O)O[C@@H]3[C@H](O)[C@@H](COP(=O)(O)O[C@@H]4[C@H](O)[C@@H](COP(=O)(O)O)O[C@H]4n4ccc(N)nc4=O)O[C@H]3n3ccc(N)nc3=O)[C@@H](O)[C@H]2O)c(=O)n1			nucleotide incorporation / radiometric	290 µM
CC(C)(C)Nc1cccnc1N1CCN(C(=O)c2cc3ccccc3[nH]2)CC1			nucleotide incorporation	<100 µM

ICn is the concentration giving n% inhibition. a–b is a range or a potency band. An empty or dashed field is not shown.